Experimental data: patent publication US20190060284A1, “PHARMACOLOGICAL MODULATORS OF NAV1.1 VOLTAGE-GATED SODIUM CHANNELS ASSOCIATED WITH MECHANICAL PAIN” (priority 2016, published 2019)

What was measured:
ATF3 = format: in vivo, mouse; conditions: after toxin injection
Description: Affymetrix was commissioned to design a Type 1 probe set to mouse Nav1.1 (Scn1a, NM_018733.2) and Type 6 probe sets to mouse TRPV1 (TrpV1, NM_001001445.2), mouse Nav1.7 (Scn9a, NM_001290674.1), mouse 5HT3 (Htr3a, NM_001099644.1), and mouse TRPM8 (Trpm8, NM_134252.3) coding regions. We used the following primary antibodies: mouse anti-NF200 (1:10,000, Sigma), rabbit anti-CGRP (1:10,000, Peninsula Labs), and rabbit anti-TH (1:5,000, AbCam). We used fluorophore-conjugated secondary antibodies raised in goat against mouse or rabbit, as appropriate (1:1,000, Alexa Fluor 488, Life Technologies). To identify IB4-binding cells, biotinylated IB4 (1:1,000, Vector Labs) and fluorophore-conjugated streptavidin (1:1,000, Alexa Fluor 488, Life Technologies) were used in place of primary and secondary antibodies. Fos staining was performed 90 minutes after hindpaw injection of Hm1a or PBS. Spinal cord sections were prepared from lumbar L4/L5 and stained with rabbit anti-Fos (1:5,000, CalBiochem). ATF3 antibody (Santa Cruz Biotechnology) was used at 1:2000.

injected paw = conditions: intraplantar Hm1a

CC(C)C[C@@H]1NC(=O)[C@H](Cc2ccc(O)cc2)NC(=O)[C@H](CCCNC(=N)N)NC(=O)[C@@H](NC(=O)[C@@H](N)CCC(=O)O)CSSC[C@@H]2NC(=O)[C@@H]3CSSC[C@@H](C(=O)N[C@@H](C)C(=O)N[C@@H](Cc4c[nH]c5ccccc45)C(=O)N[C@@H](CC(=O)O)C(=O)NCC(=O)N[C@H](C(=O)N[C@@H](Cc4ccccc4)C(=O)N[C@@H](CO)C(=O)O)[C@@H](C)O)NC(=O)[C@H](Cc4ccc(O)cc4)NC(=O)[C@H](CCCCN)NC(=O)[C@H](Cc4c[nH]c5ccccc45)NC(=O)[C@H](CC(=O)O)NC(=O)[C@H](CO)NC(=O)[C@H](CCCNC(=N)N)NC(=O)[C@H](CSSC[C@H](NC(=O)CNC(=O)CNC(=O)[C@H](Cc4ccccc4)NC1=O)C(=O)N[C@@H](CO)C(=O)N[C@@H](CO)C(=O)N[C@@H]([C@@H](C)O)C(=O)N[C@@H](CO)C(=O)N[C@@H](CC(=O)O)C(=O)N3)NC(=O)[C@H](CO)NC(=O)[C@H](CC(C)C)NC(=O)[C@H](Cc1c[nH]cn1)NC(=O)[C@H](CCCCN)NC2=O [Hm1a, δ-theraphotoxin-Hm1a]
expression of ATF3 (ATF3): fails to induce expression of ATF3 | swelling of the injected paw (injected paw): does not produce | plasma extravasation of the injected paw (injected paw; Evans blue dye): does not produce
